PubChem BioAssay AID624099, ICCB-Longwood, 2012
The whole screen tested about 21,000 reagents; this is an unselected part. Over the whole deposit, 497 (2.4%) got an active call. 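Higher z means weaker E2 silencing; only reporter increases were scored, and knock-downs that hurt cell survival may mask genuine repressor factors.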 Unmarked entries are inactive. Reagent sequences are not shown.

- Purpose: 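Host factors E2 relies on to silence an HPV18 LCR reporter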 (primary screen)
- Cell system: human C33A cervical carcinoma cells (HPV-negative) stably expressing BPV1 E2 and an HPV18 LCR luciferase reporter
- Reagent: siRNA pool against human genes, 40 nM
- Duration: 72 h
- Read-out: 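Per-well luciferase luminescence, z-scored on each plate against the plate mean and SD with control wells left out, then averaged across three replicate plates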
- Scale: mean z-score and z-score: higher = stronger reporter signal, weaker E2 silencing
- Rule for the call: 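Hit if mean z-score reaches 2 and two or more of three replicate z-scores also reach 2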

What did the screen give for CPSF6?
mean z-score: 1.06; z-score, replicate A: 1.17; z-score, replicate B: 1.15; z-score, replicate C: 0.87

How did the screen score ANKS4B?
mean z-score: 0.16; z-score, replicate A: 0.18; z-score, replicate B: 0.05; z-score, replicate C: 0.24

What did the screen give for TIGD5?
mean z-score: -0.85; z-score, replicate A: -1.11; z-score, replicate B: -0.92; z-score, replicate C: -0.52

What is on record for SLC10A4?
mean z-score: -1.13; z-score, replicate A: -0.99; z-score, replicate B: -1.46; z-score, replicate C: -0.95

With SLC25A36, what does the deposit list?
mean z-score: 0.87; z-score, replicate A: 0.96; z-score, replicate B: 0.61; z-score, replicate C: 1.05

What did the screen give for ARMCX2?
mean z-score: 0.25; z-score, replicate A: 0.31; z-score, replicate B: 0; z-score, replicate C: 0.42

With CLDN9, what does the deposit list?
mean z-score: -0.26; z-score, replicate A: -0.28; z-score, replicate B: -0.06; z-score, replicate C: -0.43

Reformatted: 2 of the entries above.
{"target": "SLC10A4", "mean z-score": -1.13, "z-score, replicate A": -0.99, "z-score, replicate B": -1.46, "z-score, replicate C": -0.95}
{"target": "SLC25A36", "mean z-score": 0.87, "z-score, replicate A": 0.96, "z-score, replicate B": 0.61, "z-score, replicate C": 1.05}

More records:
With RUSC2, how do the results read?
mean z-score: -0.36; z-score, replicate A: -0.41; z-score, replicate B: -0.12; z-score, replicate C: -0.55

What did the screen give for GYS2?
mean z-score: 0.32; z-score, replicate A: -0.23; z-score, replicate B: 0.33; z-score, replicate C: 0.87

With DLG1, what was measured?
mean z-score: 2.22 (active); z-score, replicate A: 2.56; z-score, replicate B: 2.66; z-score, replicate C: 1.44

With TACO1, what does the deposit list?
mean z-score: 2.88 (active); z-score, replicate A: 2.25; z-score, replicate B: 2.86; z-score, replicate C: 3.52

How did the screen score OLFML1?
mean z-score: 0.12; z-score, replicate A: -0.11; z-score, replicate B: 0.08; z-score, replicate C: 0.39
